Data source: PubChem BioAssay AID1259414 (Drosophila RNAi Screening Center, 2018)

Purpose: 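Host factors increasing or decreasing Wolbachia levels in cultured fly cells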 (primary screen)
System: Drosophila JW18 cells infected with Wolbachia
Knock-down reagent: long dsRNA against Drosophila genes, 0.25 µg dsRNA per well of a 384-well plate
Duration: 5 days
Challenge: cells persistently infected with Wolbachia before knock-down; no added drug
Detection: 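Imaged fluorescence in situ signal for Wolbachia 23S rRNA per DAPI-counted host cell, given as a robust z-score within each plate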
Scale: Wolbachia per cell robust z: higher = more Wolbachia per host cell than the plate typical
Rule for the call: 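Hit when robust z is 1.5 or more, or -1.5 or less, in at least two of three replicates; excludes dsRNAs with several or no targets, genes not expressed in JW18 and well A1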
The screen tested about 24,000 reagents; shown is an unselected part of those that have a named target and a result. Of all reagents, about 1,210 (5%) are marked active. 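Inactive calls also include excluded dsRNAs with several or no targets, genes unexpressed in JW18, and well A1, regardless of score.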 Names joined by + are all predicted targets of the reagent.

target,DRSC id,"Wolbachia per cell robust z, rep 1","Wolbachia per cell robust z, rep 2","Wolbachia per cell robust z, rep 3",Call
CG33337,DRSC13632,0.12,-0.3,-0.221,inactive
CG33337,DRSC27000,-6.06,0.986,-0.647,inactive
CG17107,DRSC02575,-0.249,0.258,0.0565,inactive
CG17107,DRSC22627,-0.443,-0.868,-1.38,inactive
CG17107,DRSC25263,0.162,-0.452,-0.709,inactive
Ptpmeg2,DRSC18277,-2.19,0.0687,-2.42,active
Ptpmeg2,DRSC18278,0.688,1.07,0.803,inactive
Ptpmeg2,DRSC23303,0.839,0.895,1.12,inactive
Ptpmeg2,DRSC26646,-3.96,-1.05,-1.18,inactive
Ptpmeg2,DRSC41570,-1.83,-0.982,0.433,inactive
mt:CoIII,DRSC40600,0.284,-1.85,0.907,inactive
lncRNA:CR34047,DRSC07857,0.0104,-6.16,-0.116,inactive
lncRNA:CR34047,DRSC21689,0.493,0.895,1.61,inactive
Cyp4d21,DRSC03305,0.156,0.868,-0.21,inactive
Cyp4d21,DRSC25622,0.97,0.415,-0.445,inactive
CG1602,DRSC06601,0.0704,0.288,-0.0432,inactive
CG8620,DRSC11020,-1.38,-1.48,-0.98,inactive
CG8620,DRSC25632,1.21,0.369,0.661,inactive
ms(3)K81,DRSC14746,0.412,-0.147,0.26,inactive
CG2233,DRSC18217,-0.0856,-0.846,0.162,inactive
unk,DRSC17093,-0.256,-0.0283,-0.553,inactive
unk,DRSC28754,-1.77,-1.74,-0.83,active
CG14851,DRSC14975,-4.42,-1.71,0.763,inactive
CG14851,DRSC21500,-0.713,0.686,0.881,inactive
CG14851,DRSC27841,-1.32,0.0663,-0.264,inactive
CG9624,DRSC16523,-1,-0.721,-0.459,inactive
nerfin-1,DRSC08729,-0.408,-0.715,-0.255,inactive
PGRP-SD,DRSC10856,0.583,-0.0421,1.47,inactive
CG9393,DRSC16486,0.0601,-2.12,-0.0541,inactive
MED30,DRSC23135,-0.694,-0.516,-0.666,inactive
MED30,DRSC30026,-0.0975,-4.26,0.295,inactive
CG12744,DRSC06164,-9,-0.698,0.445,inactive
Asap,DRSC06493,0.072,0.943,0.631,inactive
Asap,DRSC06830,0.791,-6.31,1.36,inactive
CG17159 + CG17162,DRSC20899,-1.03,0.208,-0.899,inactive
CG17159 + CG17162,DRSC20900,0.424,0.787,0.576,inactive
CG42395,DRSC40592,0.942,-0.867,0.294,inactive
Tengl1,DRSC00481,-0.306,0.863,1.06,inactive

Next part; the last 2 above are carried over.
target,DRSC id,"Wolbachia per cell robust z, rep 1","Wolbachia per cell robust z, rep 2","Wolbachia per cell robust z, rep 3",Call
CG42395,DRSC40592,0.942,-0.867,0.294,inactive
Tengl1,DRSC00481,-0.306,0.863,1.06,inactive
CG18268,DRSC41312,0.477,0.91,-1.93,inactive
fs(1)K10,DRSC18775,1.08,-0.0565,0.641,inactive
fs(1)K10,DRSC25258,0.529,1.17,-0.733,inactive
CG14933 + CG42486,DRSC02415,1.04,-1.1,-0.277,inactive
kl-3,DRSC20730,-0.902,0.256,-7.39,inactive
kl-3,DRSC20891,0.642,0.25,0.535,inactive
kl-3,DRSC20934,0.809,0.31,-0.99,inactive
kl-3,DRSC38637,-6.01,0.491,-0.858,inactive
kl-3,DRSC38673,0.125,0.229,0.231,inactive
Khc-73,DRSC07449,-0.483,-1.69,-1.2,inactive
Khc-73,DRSC26819,-0.111,0.482,-0.156,inactive
mAChR-B,DRSC16345,-1.15,-0.451,0.394,inactive
mAChR-B,DRSC26738,-3.27,-2.03,-0.384,inactive
VhaM9.7-b,DRSC11841,0.632,0.942,-1.42,inactive
CG12880,DRSC14568,-0.281,0.715,-0.79,inactive
CG5783,DRSC02894,-0.745,-1.68,-0.767,inactive
lncRNA:CR34046,DRSC14075,-6.66,-1.07,-1.22,inactive
lncRNA:CR34046,DRSC30016,-1.35,-0.793,-0.471,inactive
CG33062,DRSC22195,-0.573,-1.65,0.167,inactive
CG33062,DRSC27501,0.246,0.0734,-0.277,inactive
MFS12,DRSC07268,-0.536,0.481,1.7,inactive
CG9896,DRSC03962,0.0248,0.334,0.521,inactive
CG9896,DRSC04594,0.56,0.607,0.658,inactive
T48,DRSC16878,0.184,0.329,1.09,inactive
Eip63F-1,DRSC08659,0.678,0.39,-0.293,inactive
Eip63F-1,DRSC25229,-0.598,-0.358,-0.323,inactive
CG14301,DRSC14780,-5.92,-5.04,-0.937,inactive
Khc,DRSC07448,-1.32,0.724,-2.04,inactive
Khc,DRSC24335,-0.693,0.599,0.86,inactive
Ranbp21,DRSC19447,-0.597,-1.2,0.918,inactive
